Pooled drug test results. Numbers come from NIAID ChemDB, via PubChem.

Common to all: growth or infection tests; species: Hepatitis B virus; measure: EC50

Blank or dashed fields: not listed here. Two numbers with a dash give a range or band. ECn is the concentration giving n% inhibition of infection, replication or growth. Neighbouring rows are from separate reports.

SMILES	cell line	strain	read by	value
Cc1ccn(-c2ccc(-n3c(C(=O)NCc4ccccc4)c4n(c3=O)CCN(C(=O)c3ccc(Br)c(Cl)c3)C4)cc2)n1	HepG2.117	-	PCR	0.1–0.5 µM
COCCCOc1cc2c(cc1NC(=O)OC(C)(C)C)-c1c(cc(C(=O)O)c(=O)n1C1CC1)CS2(=O)=O	Primary human hepatocytes	-	antigen / visual reading / absorbance	>0.5 µM
Cc1cccnc1-n1cc(S(=O)(=O)Nc2ccc3c(C(=O)Nc4ccc(F)c(Cl)c4)n(C)nc3c2)cn1	HepAD38	-	PCR	<100 µM
COc1ccc(-n2c(C(=O)NCc3ccccc3)c3n(c2=O)C[C@H](C)N(C(=O)c2ccc(Br)c(Cl)c2)C3)cc1	HepG2.117	-	PCR	0.1–0.5 µM
CC1=C(C(=O)OCCN(C)c2ccccc2)C(c2ccccc2Cl)N=C(c2ccccn2)N1	HepG2.2.15	-	-	>25 µM
CS(=O)(=O)C1(c2ncc(C(=O)NCCC3(c4ncc(-c5ccc(Cl)cc5)s4)CCC3)o2)CC1	Primary human hepatocytes	-	antigen / luminescence	0.07 µM
CC1Sc2cc(O)c(Cl)cc2-c2c1cc(C(=O)O)c(=O)n2C1CC1	Primary human hepatocytes	-	antigen / visual reading / absorbance	>0.5 µM
O=C(CSc1nnc(CNc2ccc(F)cc2)n1-c1ccccc1)NN=CC(O)C(O)C(O)CO	HepG2 2.2.15	-	ELISA	16.7 µM
O=C(NC1CC2(C1)CN(c1nc3cc(Cl)ccc3o1)C2)c1ccc(S(=O)(=O)C2CC2)o1	Primary human hepatocytes (PHH)	-	antigen / luminescence	2.729 µM
O=C(NCc1ccccc1)c1c2n(c(=O)n1-c1ccccc1)CCN(C(=O)c1ccc(Cl)c(Cl)c1)C2	HepG2.117	-	PCR / entry	0.5–5 µM
C=CCn1c(=O)c(/C(=N\Nc2ccccc2)C(O)C(O)CO)nc2ccccc21	HepG2 2.2.15	-	ELISA	0.65 µM
CS(=O)(=O)N1CC(C(=O)NC2CC3(C2)CC(c2nc4cc(Cl)ccc4o2)C3)C1	Primary human hepatocytes	-	luminescence	4.3 µM
O=C(NCc1ccccc1)c1c2n(c(=O)n1-c1ccc(OCCO)cc1)CCN(C(=O)c1ccc(Br)c(Cl)c1)C2	HepG2.117	-	PCR	0.5–5 µM
Clc1ccc(-n2nc3ccc(NCC4CCOC4)cc3n2)cc1	Primary human hepatocytes (PHH)	-	antigen / luminescence	4.92 µM
O=C(Nc1ccc(-c2nc3ccc(F)c(F)c3o2)cc1)C1CCOC1	Primary human hepatocytes (PHH)	-	antigen / luminescence	1.43 µg/mL
COc1ccc(-n2c(C(=O)NCc3ccccc3)c3n(c2=O)CCN(C(=O)c2ccc(Cl)c(Cl)c2)C3)cn1	HepG2.117	-	PCR	>5 µM
CS(=O)(=O)C1(c2nsc(C(=O)NCCC3(c4ccnc(-c5ccc(Cl)cc5)n4)CCC3)n2)CC1	Primary human hepatocytes	-	antigen / luminescence	0.07 µM
CC1=C(C(=O)OC(C)C)C(c2ccccc2Cl)N=C(c2ccccn2)N1	HepG2.2.15	-	-	>20 µM
CC1c2cc(C(=O)O)c(=O)n(C3CC3)c2-c2cc(Cl)c(OC[C@@H]3CCCO3)cc2S1(=O)=O	Primary human hepatocytes	-	antigen / visual reading / absorbance	0.1–0.5 µM
CCOC(=O)C1=C(C)NC(c2nccs2)=NC1c1ccc(F)cc1Cl	HepG2.2.15	-	-	0.03 µM
Cn1nc2ccc(NC(=O)OCc3ccccc3)cc2c1C(=O)Nc1ccc(F)c(Cl)c1	HepAD38	-	PCR	>1000 µM
COC(=O)C1=C(C)N(C)C(c2ccccn2)=NC1c1ccccc1Cl	HepG2.2.15	-	-	>100 µM
COCCCOc1cc2c(cc1C(F)(F)F)-c1c(cc(C(=O)O)c(=O)n1C1CC1)CS2(=O)=O	Primary human hepatocytes	-	antigen / visual reading / absorbance	0.05–0.1 µM
COC(=O)CN1C(c2ccccn2)=NC(c2ccccc2Cl)C(C(=O)OC)=C1C	HepG2.2.15	-	-	>100 µM
O=C(NC1CCC2(CC1)CCN(c1nc3cc(Cl)ccc3o1)CC2)c1ccnc(S(=O)(=O)C2CC2)c1	Primary human hepatocytes (PHH)	-	antigen / luminescence	5.839 µM
CS(=O)(=O)C1(c2ccn(C(=O)NCCC3(c4ncc(-c5ccc(Cl)cc5)s4)CCC3)n2)CC1	Primary human hepatocytes	-	antigen / luminescence	0.06 µM
Cn1nc2cc(NS(=O)(=O)N3CCOC3=O)ccc2c1C(=O)Nc1ccc(F)c(Cl)c1	HepAD38	-	PCR	100–1000 µM
CS(=O)(=O)C1(c2cccc(C(=O)NC34CC(c5nc(-c6ccc(Cl)cc6)no5)(C3)C4)n2)CC1	Primary human hepatocytes	-	antigen / luminescence	0.47 µM
CCOC(=O)c1c(CS(=O)c2ccccc2)n(C)c2cc(Br)c(O)c(Cn3ccnc3C)c12	2.2.15	-	antigen	49.06 µg/mL
CCOC(=O)CSc1nnc(CNc2ccc(F)cc2)n1-c1ccccc1	HepG2 2.2.15	-	ELISA	23.4 µM
O=C(NCc1c(F)cccc1Cl)c1c2n(c(=O)n1-c1ccc(OC3CC3)cc1)CCN(C(=O)c1ccc(Br)c(Cl)c1)C2	HepG2.117	-	PCR	0.1–0.5 µM
C=CCn1c(=O)c(-c2cc(CO)n(-c3ccccc3)n2)nc2ccccc21	HepG2 2.2.15	-	ELISA	1.1 µM
CCOCCCOc1cc2c(cc1Cl)-c1c(cc(C(=O)O)c(=O)n1C1CC1)C(C)S2(=O)=O	Primary human hepatocytes	-	antigen / visual reading / absorbance	0.1–0.5 µM
CS(=O)(=O)C1(c2cc(C(=O)NC34CC(c5nc(-c6ccc(Cl)cc6)no5)(C3)C4)ccn2)CC1	Primary human hepatocytes	-	antigen / luminescence	0.56 µM
O=C(NC1CC2(C1)CC(c1nc3cc(Cl)ccc3o1)C2)C1CCS(=O)(=O)CC1	Primary human hepatocytes	-	luminescence	5.23 µg/mL
O=C(CSc1nnc(CNc2ccccc2)n1-c1ccccc1)NN=CC(O)C(O)C(O)C(O)CO	HepG2 2.2.15	-	ELISA	64 µM
Cn1nc2cc(NS(=O)(=O)c3cccs3)ccc2c1C(=O)Nc1ccc(F)c(Cl)c1	HepAD38	-	PCR / entry	100–1000 µM
O=C(CNc1ccccc1)NNC(=S)Nc1ccccc1	HepG2 2.2.15	-	ELISA	11.4 µM
CN1[C@H](C(=O)Nc2ccc(F)c(Cl)c2)C[C@H](c2ncc(-c3cn(C)cn3)s2)NS1(=O)=O	PHH	Genotype D	ELISA / antigen	0.204 µM
CC(C)(c1cccc(C(=O)NC23CC(c4nc(-c5ccc(Cl)cc5)no4)(C2)C3)c1)S(C)(=O)=O	Primary human hepatocytes	-	antigen / luminescence	0.47 µM
COC(=O)C1=C(COCCN=[N+]=[N-])NC(c2ccccn2)=NC1c1ccccc1Cl	HepG2.2.15	-	-	25 µM
COc1ccc(-n2c(C(=O)NCc3ccc4occc4c3)c3n(c2=O)CCN(C(=O)c2ccc(Cl)c(Cl)c2)C3)cc1	HepG2.117	-	PCR	0.5–5 µM
O=C(O)c1cc2c(n(C3CC3)c1=O)-c1cc(Cl)c(OCC3CCC3)cc1S(=O)(=O)C2	Primary human hepatocytes	-	antigen / visual reading / absorbance	>0.5 µM
O=C(NCc1ccccc1)c1c2n(c(=O)n1-c1ccc(Cl)cc1)CCN(C(=O)c1ccc(Br)c(Cl)c1)C2	HepG2.117	-	PCR	0.5–5 µM
CN(C)CCn1cc(S(=O)(=O)Nc2cc(F)c3c(C(=O)Nc4ccc(F)c(Cl)c4)n(C)nc3c2)cn1	HepAD38	-	PCR	100–1000 µM

Again, the opening 4 rows:

{"SMILES": "Cc1ccn(-c2ccc(-n3c(C(=O)NCc4ccccc4)c4n(c3=O)CCN(C(=O)c3ccc(Br)c(Cl)c3)C4)cc2)n1", "cell line": "HepG2.117", "read by": "PCR", "value": "0.1–0.5 µM"}
{"SMILES": "COCCCOc1cc2c(cc1NC(=O)OC(C)(C)C)-c1c(cc(C(=O)O)c(=O)n1C1CC1)CS2(=O)=O", "cell line": "Primary human hepatocytes", "read by": "antigen / visual reading / absorbance", "value": ">0.5 µM"}
{"SMILES": "Cc1cccnc1-n1cc(S(=O)(=O)Nc2ccc3c(C(=O)Nc4ccc(F)c(Cl)c4)n(C)nc3c2)cn1", "cell line": "HepAD38", "read by": "PCR", "value": "<100 µM"}
{"SMILES": "COc1ccc(-n2c(C(=O)NCc3ccccc3)c3n(c2=O)C[C@H](C)N(C(=O)c2ccc(Br)c(Cl)c2)C3)cc1", "cell line": "HepG2.117", "read by": "PCR", "value": "0.1–0.5 µM"}